Measurements published in paper PMC11363325, “A Novel Prodrug Strategy Based on Reversibly Degradable Guanidine Imides for High Oral Bioavailability and Prolonged Pharmacokinetics of Broad-Spectrum Anti-influenza Agents” (ACS Central Science, 2024).
Like-named read-outs stand apart in the source and are kept apart here.

Legend:
[1] = tested on: A/Hong Kong/8/1968 (HK; H3N2)
[2] = tested on: A/Puerto Rico/8/1934 (PR8; H1N1)

SMILES: NC12CC3CC(CC(C3)C1)C2 [AMT, Amantadine, reference compound]
- S.I. (ratio of CC50 to EC50) ([1]; HK): (>64.1)

SMILES: CCC(CC)O[C@@H]1C=C(C(=O)O)C[C@H](NC(=N)N)[C@H]1NC(C)=O [GOC, guanidino oseltamivir carboxylate, reference compound]
- S.I. (ratio of CC50 to EC50) ([1]; HK): (>20,000)
- S.I. (ratio of CC50 to EC50) (B/Lee/1940 (Lee); Lee): (>142.9)
- S.I. (ratio of CC50 to EC50) ([2]; PR8): (>20,000)

SMILES: CCC(CC)O[C@@H]1C=C(C(=O)O)C[C@H](N)[C@H]1NC(C)=O [OSC, oseltamivir carboxylate, reference compound]
- S.I. (ratio of CC50 to EC50) ([1]; HK): (>20,000)
- S.I. (ratio of CC50 to EC50) (B/Lee/1940 (Lee); Lee): (>77.5)
- S.I. (ratio of CC50 to EC50) ([2]; PR8): (>1000)

SMILES: CCCCC1CC(=O)N(C(=N[C@H]2CC(C(=O)O)=C[C@@H](OC(CC)CC)[C@@H]2NC(C)=O)N2C(=O)CC(CCCC)C2=O)C1=O (stereo partly shown) [OSC-GCDI(B)]
- S.I. (ratio of CC50 to EC50) ([1]; HK): (>2500)
- S.I. (ratio of CC50 to EC50) (B/Lee/1940 (Lee); Lee): (>1.4)
- S.I. (ratio of CC50 to EC50) ([2]; PR8): (>1111)

SMILES: CCC(CC)O[C@@H]1C=C(C(=O)O)C[C@H](N=C(N2C(=O)[C@H]3CCCC[C@H]3C2=O)N2C(=O)[C@H]3CCCC[C@H]3C2=O)[C@H]1NC(C)=O [OSC-GCDI(C)]
- S.I. (ratio of CC50 to EC50) ([1]; HK): (>20,000)
- S.I. (ratio of CC50 to EC50) (B/Lee/1940 (Lee); Lee): (>45.2)
- S.I. (ratio of CC50 to EC50) ([2]; PR8): (>10,000)

SMILES: CCC(CC)O[C@@H]1C=C(C(=O)O)C[C@H](N=C(N2C(=O)C3CCC(C)CC3C2=O)N2C(=O)C3CCC(C)CC3C2=O)[C@H]1NC(C)=O (stereo partly shown) [OSC-GCDI(CM)]
- S.I. (ratio of CC50 to EC50) ([1]; HK): (>10,000)
- S.I. (ratio of CC50 to EC50) (B/Lee/1940 (Lee); Lee): (>12.0)
- S.I. (ratio of CC50 to EC50) ([2]; PR8): (>3333)

SMILES: CCC(CC)O[C@@H]1C=C(C(=O)O)C[C@H](N=C(N2C(=O)[C@H]3CC=CC[C@H]3C2=O)N2C(=O)[C@H]3CC=CC[C@H]3C2=O)[C@H]1NC(C)=O [OSC-GCDI(Ce)]
- S.I. (ratio of CC50 to EC50) ([1]; HK): (>5000)
- S.I. (ratio of CC50 to EC50) (B/Lee/1940 (Lee); Lee): (>8.4)
- S.I. (ratio of CC50 to EC50) ([2]; PR8): (>3333)

SMILES: CCC(CC)O[C@@H]1C=C(C(=O)O)C[C@H](N=C(N2C(=O)CC(C)(C)C2=O)N2C(=O)CC(C)(C)C2=O)[C@H]1NC(C)=O [OSC-GCDI(D)]
- S.I. (ratio of CC50 to EC50) ([1]; HK): (>3333)
- S.I. (ratio of CC50 to EC50) (B/Lee/1940 (Lee); Lee): (>7.3)
- S.I. (ratio of CC50 to EC50) ([2]; PR8): (>1429)

SMILES: CCC(CC)O[C@@H]1C=C(C(=O)O)C[C@H](N=C(N2C(=O)CC(C)C2=O)N2C(=O)CC(C)C2=O)[C@H]1NC(C)=O (stereo partly shown) [OSC-GCDI(M)]
- S.I. (ratio of CC50 to EC50) ([1]; HK): (>5000)
- S.I. (ratio of CC50 to EC50) (B/Lee/1940 (Lee); Lee): (>18.0)
- S.I. (ratio of CC50 to EC50) ([2]; PR8): (>2500)

SMILES: CCC(CC)O[C@@H]1C=C(C(=O)O)C[C@H](N=C(N2C(=O)c3ccccc3C2=O)N2C(=O)c3ccccc3C2=O)[C@H]1NC(C)=O [OSC-GCDI(P)]
- S.I. (ratio of CC50 to EC50) ([1]; HK): (>10,000)
- S.I. (ratio of CC50 to EC50) (B/Lee/1940 (Lee); Lee): (>44.2)
- S.I. (ratio of CC50 to EC50) ([2]; PR8): (>3333)

SMILES: CCC(CC)O[C@@H]1C=C(C(=O)O)C[C@H](N=C(N2C(=O)CCC2=O)N2C(=O)CCC2=O)[C@H]1NC(C)=O [OSC-GCDI(S)]
- S.I. (ratio of CC50 to EC50) ([1]; HK): (>3333)
- S.I. (ratio of CC50 to EC50) (B/Lee/1940 (Lee); Lee): (>9.01)
- S.I. (ratio of CC50 to EC50) ([2]; PR8): (>1667)

SMILES: NC(=O)c1ncn([C@@H]2O[C@H](CO)[C@@H](O)[C@H]2O)n1 [RBV, Ribavirin, reference compound]
- S.I. (ratio of CC50 to EC50) [1]: (>4.6)
- S.I. (ratio of CC50 to EC50) (B/Lee/1940 (Lee)): (>7.5)
- S.I. (ratio of CC50 to EC50) [2]: (>9.0)
